Source: ChEMBL document CHEMBL1143396, “Additivity in the analysis and design of HIV protease inhibitors” (J Med Chem, 2009)

Chains of the proteins cited; added tags and fusions are not shown.
UniProt Q72874, entry or part of it Q7K: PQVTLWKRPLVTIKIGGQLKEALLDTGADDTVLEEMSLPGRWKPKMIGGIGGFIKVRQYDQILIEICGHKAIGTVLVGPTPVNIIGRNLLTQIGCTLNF

Target: Human immunodeficiency virus type 1 protease (Human immunodeficiency virus 1, UniProt Q72874, Q7K)
Test: Inhibition of HIV1 protease Q7K mutant by FRET method
Procedure, shortened: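 Wild-type HIV-1 protease (Q7K), desalted into 20 mM sodium acetate pH 5, apparent concentration around 50 nM by UV at 280 nm. Enzyme preincubated with inhibitor (DMSO stocks) or DMSO 20–30 min at room temperature. Read ex 340/em 490 nm, 30 °C, about 10 min.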

SMILES	Ki (read-out: Ki)	Ki (read-out: pKi (converted))
CNC(=O)CCC(=O)N[C@@H](Cc1ccccc1)[C@H](O)CN(CC1CC1)S(=O)(=O)c1ccco1	58 nM	57.5 nM
CNC(=O)CCC(=O)N[C@@H](Cc1ccccc1)[C@H](O)CN(CC1CC1)S(=O)(=O)c1cccc(OC)c1	23.9 nM	24 nM
